Results as given in publication PMC5741678, “Specificity Characterization of SLA Class I Molecules Binding to Swine-Origin Viral Cytotoxic T Lymphocyte Epitope Peptides in Vitro” (2017).

Assays:
Assay in all cases: ELISA
Conditions in all cases: for response (relative OD value): read off a plot
[1] = molecular target: PRRSV G9 epitope peptide (…)
[2] = molecular target: PRRSV GP4-5 epitope peptide (…)
[3] = molecular target: PRRSV N-15 epitope peptide (…)
[4] = molecular target: PRRSV N-6 epitope peptide (…)

Substance	percent of parent ([1]; parent: 100)	response (relative OD value) ([1]; parent: est. 4.3)	percent of parent ([2]; parent: 100)	response (relative OD value) ([2]; parent: est. 4.5)	percent of parent ([3]; parent: 100)	response (relative OD value) ([3]; parent: est. 2.7)	percent of parent ([4]; parent: 100)	response (relative OD value) ([4]; parent: est. 4.6)	other: Relative level (% of SLA-1*13:01 binding) ([1]; parent: 27.78)	response (relative OD value) ([1]; parent: est. 1.2)	other: Relative level (% of SLA-1*13:01 binding) ([2]; parent: 25.59)	response (relative OD value) ([2]; parent: est. 1.1)	other: Relative level (% of SLA-1*13:01 binding) ([3]; parent: 39.02)	response (relative OD value) ([3]; parent: est. 1.1)	other: Relative level (% of SLA-1*13:01 binding) ([4]; parent: 23.03)	response (relative OD value) ([4]; parent: est. 1.1)
SLA-1*13:01-β2m single-chain protein (from UniProt Q07717) N151D; V152E	16.9%	0.72	23.9%	1.1	39.9%	1.1	16.8%	0.78								
SLA-1*04:01:01-β2m single-chain protein (extracellular part of SLA-1*04:01:01, (G4S)3 linker, mature β2m, His-tag) (from UniProt Q07717) D151N; E152V									57.8%	2.5	103%	4.6	84%	2.3	78.6%	3.6
